Patent US6355785B1, “Guanosine-rich oligonucleotide integrase inhibitors” (Aronex Pharmaceuticals, Inc., priority 1993, dated 2002)
Certain results were filed several times, with different values. Only these are listed. The source may hold further records. Values given together read as repeated measurements (runs, samples, wells or individuals).

Target: recombinant RT (HIV-1BH10) (Human immunodeficiency virus type 1 group M subtype B, UniProt P03366)
Assay: Reverse transcriptase enzyme inhibition assays
Conditions: read-out: IC50 recombinant HIV-1 RT; template ribosomal RNA, duplicate experiments

For `Cc1cn([C@H]2C[C@H](N=[N+]=[N-])[C@@H](COP(=O)(O)OP(=O)(O)OP(=O)(O)O)O2)c(=O)[nH]c1=O`, the IC50 was 19 nM and 8 nM.
